Patent publication US20100255521A1, “Fluorescent substrates for Detecting organophosphatase enzyme activity” (published 2010)

Protein sequences, listed by entry. Tags and fused reporters are not part of them. Lines headed by an entry give the natural chain unless they say otherwise; changes in a name come on top.
UniProt P27169: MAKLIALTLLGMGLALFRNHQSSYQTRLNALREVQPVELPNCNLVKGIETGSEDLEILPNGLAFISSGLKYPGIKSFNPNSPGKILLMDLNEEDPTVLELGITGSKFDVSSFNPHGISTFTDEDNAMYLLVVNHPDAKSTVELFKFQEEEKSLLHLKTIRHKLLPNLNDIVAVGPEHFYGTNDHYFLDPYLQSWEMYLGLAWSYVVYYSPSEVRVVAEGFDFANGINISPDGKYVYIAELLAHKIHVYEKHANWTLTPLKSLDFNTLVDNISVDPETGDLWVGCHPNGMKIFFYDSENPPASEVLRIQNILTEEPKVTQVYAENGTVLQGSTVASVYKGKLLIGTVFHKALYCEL

Experiments:
human paraoxonase = human paraoxonase (Homo sapiens, UniProt P27169); details: read-out: Km of human paraoxonase for paraoxon; reference [9]; cited from earlier work
OPH = OPH (Brevundimonas diminuta, UniProt P0A434); experiment: OPH detection sensitivity and kinetics of OPH mediated hydrolysis (Example 7)

CCOP(=O)(OCC)Oc1ccc([N+](=O)[O-])cc1
Km (human paraoxonase): 500 µM | catalytic rate (kcat) of OPH mediated hydrolysis (OPH): 670 s⁻¹ | kcat for paraoxon relative to kcat for DEPFMU (OPH; OPH): more than 10 times
